In patent US12157713B2, “Conjugated oligoelectrolytes as antimicrobial agents” (Nanyang Technological University, priority 2018, dated 2024):

System: human erythrocytes
Test: Haemolysis assay
Type: cell-based
Conditions: MIC against S. aureus 25923
Protocol: 1 mL of mammalian blood, collected from a healthy donor, was mixed with 9 mL of PBS and centrifuged at 1,000 rpm for 5 min. Red blood cell pellet was collected and subsequently washed with PBS three times and diluted to a final concentration of 5% v/v. The various COEs were dissolved in PBS and two folds serial diluted in a 96-well microplate. 50 μL of red blood cell stock was mixed with 50 μL of COE solution in each well and incubated for 1 hr at 37° C. under shaking. The microplate was centrifuged at 1,000 rpm for 10 min. 80 μL aliquots of the supernatant were then transferred to a new 96-well microplate and diluted with another 80 μL of PBS. Haemolytic activity was calculated by measuring absorbance at 540 nm using a 96-well plate spectrophotometer. Triton X-100 (0.1% in PBS), which is able to lyse red blood cells, completely was used as positive control, while PBS was used as negative control. The haemolysis percentage was calculated using the following formula:
[formula] where Op is the absorbance of the COE-treated sample, Ob is the absorbance of negative control and Ot is the absorbance of positive control. Results and Discussions
The selectivity of COEs towards bacteria or mammalian cells can be quantified using the ratio between the concentrations leading to 50% lysis of human erythrocytes (HC50) and the MIC value.

C[N+](C)(C)CC[N+](C)(C)CCCCCCOc1ccc(/C=C/c2ccc(/C=C/c3ccc(OCCCCCC[N+](C)(C)CC[N+](C)(C)C)cc3)cc2)cc1 [COE-T62]
HC50/MIC (S. aureus) ratio: >8192
